Measured values from patent publication US20210238629A1.

Key:
[1] = biological target: HA of A(H1N1)pdm09 virus (A/Hong Kong/415742/2009) (influenza A virus A(H1N1)pdm09); assay: cell-based or functional assay
[2] = biological target: HA of A(H7N7) virus (A/Netherlands/219/2003) (influenza A virus A/Netherlands/219/2003 (H7N7)); assay: cell-based or functional assay

Binder | IC50 (H1N1), plaque reduction assay in MDCK cells [1] | IC50 (H7N7), plaque reduction assay in MDCK cells [2]
YGRKKRRQRRRCWGPCPTAFRQIGNCGRFRVRCCRIR (modifications not checked) [TAT-P1 dual-functional fusion peptide] | 0.67 µg/mL | –
CWGPCPTAFRQIGNCGRFRVRCCRIR (modifications not checked) [P1 peptide] | 1.6 µg/mL | 1.56 µg/mL
